Pooled drug test results. Numbers come from NIAID ChemDB, via PubChem.

All rows: toxicity to cultured cells; endpoint: CC50

Conditions beyond the fields shown may differ between rows.

| structure | cell line | method | value |
|---|---|---|---|
| OC[C@H]1O[C@@H](n2c(Br)nc3cc(Cl)c(Cl)cc32)[C@H](O)[C@@H]1O | CBL | neutral red | >109 µM |
| O=C(NCc1ccc(Cl)cc1)c1c[nH]c2ccc(C#CCO)cc2c1=O | REF |  | 58 µM |
| CCC(CCC[C@@H](CO)N(CCC(C)C)S(=O)(=O)c1ccc(N)cc1)NC(=O)[C@H](C(c1ccccc1)c1ccccc1)N(C)C(=O)OC | T lymphoid cells | microscopy | >10 µM |
| O=c1sc2nc3c(c(=S)n2/c1=C/c1ccc(Cl)cc1)C1=C(CCC/C1=C\c1ccncc1)C(c1ccncc1)S3 | MGC-803 | MTT | 35.2 µM |
| COC(=O)N[C@H](C(=O)N[C@H](CCC[C@@H](CO)N(CCC(C)C)S(=O)(=O)c1ccc(C(C)=O)cc1)C1CC1)C(c1ccc(F)cc1)c1ccc(F)cc1 | T lymphoid cells | microscopy | >10 µM |
| O=C(O)P(=O)(O)O | HSB-2 |  | >166 µM |
| Nc1nc(N)nc(OC[C@H]2CC[C@@H](COCc3ccccc3)O2)n1 | PC-3 |  | >250 µM |
| CCN1C(=O)C(C)c2cc(C(=O)CN3CCN(c4noc5cc(Cl)ccc45)CC3)ccc21 | RAW 264.7 | MTT | 56.05 µg/mL |
| OC[C@@H]1CC[C@H](COc2ncnc3nc[nH]c23)O1 | PC-3 |  | >250 µM |
| CCN1C(=O)Cc2cc(C(=O)CN3CCN(c4noc5c(Cl)cccc45)CC3)ccc21 | RAW 264.7 | MTT | 82.89 µg/mL |
| CCCCC(=O)OC1CC(OC(C)C(C)C(O)C(C)C(O)C(C)C2OC(=O)/C=C/CC(O)CC(O)CC(O)CCC(C)C(O)C[C@@]3(O)O[C@H](CC(O)CC(OC(=O)CC(=O)O)CCCC(O)C4OC4C2C)C[C@H](O)[C@H]3O)OC(C)C1O | COS 1 |  | >100 µg/mL |
| CSc1nsc(-c2cccc(Cl)c2)c1C#N | L929 |  | 10 µM |
| Cc1ccc(OC(=O)NCCc2ccc3c(n2)NCCC3)cc1 | PBMC |  | 50 µM |
| CS(=O)(=O)CCNCc1ccc(-c2ccc3ncnc(Nc4ccc(N5CCOCC5)cc4)c3c2)o1 | HUH 9B |  | 10–25 µM |
| COC(=O)N[C@H](C(=O)N[C@@H](C)CCC[C@@H](CO)N(C(C)C)S(=O)(=O)c1ccc(N)cc1)C(c1ccccc1)c1ccccc1 | T lymphoid cells | microscopy | >10 µM |
| CSc1nsc(-c2ccc(C)cc2)c1C#N | HEP-2 |  | 18 µM |
| C[C@H](O)Cc1cc2c(O[C@H]3O[C@H](CO)[C@@H](O)[C@H]3O)ccc(O)c2c(=O)o1 | SMMC-7721 | MTT | >40 µg/mL |
| CCO/N=C/c1ccc(OCCC2CCN(c3cccc(C)n3)CC2)cc1 | MRC-5 | neutral red | >0.1 µg/mL |
| NC(=O)c1[nH]c2c(c1N)C1=C(CCC/C1=C\c1ccncc1)C(c1ccncc1)S2 | KB | MTT | >50 µM |
| O=C(NCCc1ccc2c(n1)NCCC2)Nc1ccc(-c2ccccc2)cc1 | PBMC |  | 6.2 µM |
| CC[C@@H](CCC[C@@H](CO)N(C(C)C)S(=O)(=O)c1ccc(N)cc1)NC(=O)[C@@H](NC(=O)OC)C(c1ccccc1)c1ccccc1 | T lymphoid cells | microscopy | >10 µM |
| CO/N=C/c1cc(C)c(OCCC2CCN(c3ccc(C)nn3)CC2)cc1C | MRC-5 | neutral red | >0.1 µg/mL |
| COC(=O)N[C@@H](Cc1ccccc1Cl)C(=O)N[C@H](CCC[C@@H](CO)N(CCC(C)C)S(=O)(=O)c1ccc([C@@H](C)O)cc1)C1CC1 | T lymphoid cells | microscopy | >10 µM |
| Nc1nc(Cl)cc(OC[C@H]2CC[C@@H](COCc3ccccc3)O2)n1 | PC-3 |  | 115 µM |
| Nc1nc2c(ncn2[C@@H]2O[C@H](CO)[C@H]2CO)c(=O)[nH]1 | COS 1 |  | 66 µg/mL |
| CCN1C(=O)C(C)c2cc(C(=O)CN3CCN(c4noc5cccc(Cl)c45)CC3)ccc21 | RAW 264.7 | MTT | 61.88 µg/mL |
| S=c1[nH]c2c(c(=S)[nH]1)C1=C(CCC/C1=C\c1ccncc1)C(c1ccncc1)S2 | MCF-7 | MTT | 15.2 µM |
| CCO/N=C/c1ccc(OCCC2CCN(c3ccc(Cl)nn3)CC2)c([N+](=O)[O-])c1 | MRC-5 | visual reading | >1 µg/mL |
| Nc1nc2c(ncn2COC(CO)CO)c(=O)[nH]1 | COS 1 |  | 69.9 µg/mL |
| COC(=O)N[C@H](C(=O)N[C@@H](C)CCC[C@@H](CO)N(C(C)C)S(=O)(=O)c1ccc([C@@H](C)O)cc1)C(c1ccccc1)c1ccccc1 | T lymphoid cells | microscopy | >10 µM |
| CC(C)(C)OC(=O)NCc1cccc(-c2ccc3ncnc(Nc4ccc(N5CCOCC5)cc4)c3c2)c1 | HUH 9B |  | 10–25 µM |
| CCOC(=O)CNC1=C(C#N)C2=C(CCC/C2=C\c2ccncc2)C(c2ccncc2)S1 | MCF-7 | MTT | >50 µM |
| COC(=O)N[C@H](C(=O)N[C@H](C)CCC[C@@H](CO)N(CCC(C)C)S(=O)(=O)c1ccc(N)cc1)C(c1ccccc1)c1ccccc1 | T lymphoid cells | microscopy | >10 µM |
| CCc1nc(CCC(=O)O)cnc1CCC(=O)O | HL-60 | MTT | >40 µg/mL |
| CC(=O)Nc1cccc(-c2ccc3ncnc(Nc4ccc(N5CCOCC5)cc4)c3c2)c1 | HUH 9B |  | >25 µM |
| O=C(NCCc1ccc2c(n1)NCCC2)Nc1ccc(N2CCOCC2)nc1 | PBMC |  | 50 µM |
| COC(=O)N[C@H](C(=O)N[C@@H](CCC[C@@H](CO)N(CCC(C)C)S(=O)(=O)c1ccc(CO)cc1)C(F)(F)F)C(c1ccccc1)c1ccccc1 | T lymphoid cells | microscopy | >10 µM |
| COC(=O)N[C@H](C(=O)N[C@H](CCC[C@@H](CO)N(CCC(C)C)S(=O)(=O)c1ccc(CO)cc1)C(F)(F)F)C(c1ccccc1)c1ccccc1 | T lymphoid cells | microscopy | >10 µM |
| O=C1Sc2nc3c(c(=S)n2C/C1=C/c1ccccc1)C1=C(CCC/C1=C\c1ccncc1)C(c1ccncc1)S3 | MGC-803 | MTT | 26.1 µM |
| Cc1cc(N2CCOCC2)ccc1Nc1ncnc2ccc(-c3cccs3)cc12 | HUH 9B |  | 10–25 µM |
| CN1C(=O)Cc2cc(C(=O)CN3CCN(c4noc5cc(Cl)ccc45)CC3)ccc21 | RAW 264.7 | MTT | 58.41 µg/mL |
| CCCCOc1ccc(-c2snc(SC)c2C#N)cc1 | L929 |  | >50 µM |
| CCO/N=C\c1ccc(OCCC2CCN(c3ccc(Cl)nn3)CC2)cc1 | MRC-5 | visual reading | >0.1 µg/mL |
| COC(=O)N[C@@H](Cc1ccccc1Br)C(=O)N[C@@H](C)CCC[C@@H](CO)N(C(C)C)S(=O)(=O)c1ccc(N)cc1 | T lymphoid cells | microscopy | >10 µM |
| Cc1ccccc1-c1ccc2ncnc(Nc3ccc(N4CCOCC4)cc3)c2c1 | HUH 9B |  | >25 µM |
| Cc1ccc(F)cc1NC(=O)NCCc1ccc2c(n1)NCCC2 | PBMC |  | 17.4 µM |
| Nc1c2c(nc(=O)n1-c1ccccc1)SC(c1ccncc1)C1=C2/C(=C/c2ccncc2)CCC1 | MGC-803 | MTT | 14.9 µM |
| CO/C=C(/C(=O)OC)[C@H](C)[C@H](/C=C/c1ccccc1)OC(C)=O | HeLa S3 |  | 50 µg/mL |
| Nc1cc(OC[C@H]2CC[C@@H](CO)O2)nc(N)n1 | CAKI-1 |  | >250 µM |
| COC(=O)N[C@H](C(=O)NCCCC[C@@H](CN)N(CCC(C)C)S(=O)(=O)c1ccc(N)cc1)C(c1ccccc1)c1ccccc1 | T lymphoid cells | microscopy | >10 µM |
| CCOC(=O)c1[nH]c2c(c1NC(N)=S)C1=C(CCC/C1=C\c1ccncc1)C(c1ccncc1)S2 | KB | MTT | 49.4 µM |
| COC(=O)N[C@H](C(=O)N[C@@H](C)CCC[C@@H](CO)N(CCC(C)C)S(=O)(=O)c1ccc(N)cc1)C(c1ccccc1)c1ccccc1 | T lymphoid cells | microscopy | >10 µM |
| O=C(NCCc1ccc2c(n1)NCCC2)NCC1CCCCC1 | PBMC |  | 16 µM |
| CSc1nsc(-c2ccc3ccccc3c2)c1C#N | HEP-2 |  | 20 µM |
| CC(C)(C)OC(=O)Nc1cccc(-c2ccc3ncnc(Nc4ccc(N5CCOCC5)cc4)c3c2)c1 | HUH 9B |  | >25 µM |
| CN1C(=O)Cc2cc(C(=O)CN3CCN(c4noc5ccccc45)CC3)ccc21 | RAW 264.7 | MTT | 70.18 µg/mL |
| O=C(NCCc1ccc2c(n1)NCCC2)Nc1c(Cl)cccc1C(F)(F)F | PBMC |  | 50 µM |
| CCO/C=N\C1=C(C#N)C2=C(CCC/C2=C\c2ccncc2)C(c2ccncc2)S1 | KB | MTT | 46.8 µM |
| Nc1cc(OC[C@@H]2O[C@H](CO)[C@@H](O)[C@H]2O)nc(N)n1 | CAKI-1 |  | 137 µM |
| COC(=O)N[C@H](C(=O)N[C@@H](C)CCC[C@@H](CO)N(C)S(=O)(=O)c1ccc(CO)cc1)C(c1ccccc1)c1ccccc1 | T lymphoid cells | microscopy | >10 µM |
| O=C(NCCc1ccc2c(n1)NCCC2)NCc1ccc(Cl)cc1 | PBMC |  | 50 µM |
| O[C@@H]1[C@H](O)[C@H](O)CO[C@H]1n1c(Br)nc2cc(Cl)c(Cl)cc21 | CBL | neutral red | >122 µM |
| O=C(NCC1CCc2ccccc2N1)Oc1ccc(Br)cc1 | PBMC |  | 50 µM |
| COc1cc(OC[C@H]2CC[C@@H](CO)O2)ncn1 | PC-3 |  | ≥250 µM |
| Nc1nc(-c2ccc(NC(=O)CNCc3ccccc3)cc2)cs1 | BHK-21/C13 |  | >100 µM |
| CO/N=C/c1cc(C)c(OCCC2CCN(c3ccc(Cl)nn3)CC2)c(C)c1 | MRC-5 | visual reading | >1 µg/mL |
| CO/C=C(/C(=O)OC)[C@H](C)[C@@H](O)/C=C/c1ccccc1 | HeLa S3 |  | >100 µg/mL |
| CN1CCN(Cc2ccc(-c3ccc4ncnc(Nc5ccc(N6CCOCC6)cc5)c4c3)o2)CC1 | HUH 9B |  | >25 µM |
| CSc1nsc(-c2cccs2)c1C#N | HEP-2 |  | 6 µM |
| O=C(NCCc1ccc2c(n1)NCCC2)Nc1ccccc1F | PBMC |  | 50 µM |
| CC(=O)Nc1ccc(-c2ccc3ncnc(Nc4ccc(N5CCOCC5)cc4)c3c2)cc1 | HUH 9B |  | >25 µM |

A second listing of 4 rows from above:

structure | cell line | method | value
S=c1[nH]c2c(c(=S)[nH]1)C1=C(CCC/C1=C\c1ccncc1)C(c1ccncc1)S2 | MCF-7 | MTT | 15.2 µM
Cc1cc(N2CCOCC2)ccc1Nc1ncnc2ccc(-c3cccs3)cc12 | HUH 9B |  | 10–25 µM
COC(=O)N[C@H](C(=O)N[C@@H](C)CCC[C@@H](CO)N(C(C)C)S(=O)(=O)c1ccc([C@@H](C)O)cc1)C(c1ccccc1)c1ccccc1 | T lymphoid cells | microscopy | >10 µM
CCC(CCC[C@@H](CO)N(CCC(C)C)S(=O)(=O)c1ccc(N)cc1)NC(=O)[C@H](C(c1ccccc1)c1ccccc1)N(C)C(=O)OC | T lymphoid cells | microscopy | >10 µM

An empty or dashed field is not shown. CCn: concentration that lowers growth or viability of the cells by n%. a–b is a range or a potency band.